Measured values from several laboratories, pooled; numbers as filed in NIAID ChemDB.

All rows: cytotoxicity tests; cell line: PBMC; read-out: CC50

Neighbouring rows are from separate reports. CCn: concentration that lowers growth or viability of the cells by n%. Blank or dashed fields: not listed here.

smiles | read by | value
Nc1ccn([C@H]2C[C@@](F)(CC(F)(F)P(=O)(O)O)CO2)c(=O)n1 | - | >100 µM
Nc1nc2c(ncn2[C@H]2OC[C@@](F)(C=CP(=O)(O)O)[C@H]2F)c(=O)[nH]1 | MTT | >100 µM
Nc1nc(NC2CC2)c2ncn([C@H]3CO[C@@H](CO)O3)c2n1 | MTT | >100 µM
Cc1cn([C@H]2C[C@H](N=[N+]=[N-])[C@@H](COC(=O)c3ccncc3)O2)c(=O)[nH]c1=O | sulforhodamine | 250 µM
COc1ccc(C(C)(C)CCCC(C)C)c(OC)c1 | XTT | >200 µM
Nc1cc(Cl)nc(SCc2ccccc2)n1 | - | >10 µM
CCOC(=O)[C@H](C)N[P@@](=O)(OC[C@H]1O[C@@H](n2cnc3c(N)nc(N)nc32)[C@](C)(O)[C@@H]1O)Oc1ccccc1CCC(=O)OC(C)C | - | >100 µM
CC1(C)CC[C@]2(C(=O)O)CC[C@]3(C)C(=CC[C@@H]4[C@@]5(C)CC[C@H](O)C(C)(C)[C@@H]5CC[C@]43C)[C@@H]2C1 | crystal violet | >160 µM
COC(=O)[C@H](C)NP(=O)(OC[C@H]1O[C@@H](N2C(=O)NC(=O)C(C)(Br)C2OC)C[C@@H]1N=[N+]=[N-])Oc1ccc(Br)cc1 | - | 27.8 µM
Nc1nc(=O)n([C@@H]2CS[C@H](CO)O2)cc1F | MTT | >12.1 µM
CC(C)(C)C(=O)SCCOP(=O)(OCCSC(=O)C(C)(C)C)C(F)(F)C[C@@]1(F)CO[C@@H](n2cnc3c(N)ncnc32)C1 | - | 80 µM
c1cc(CN2CCCNCCNCCCNCC2)ccc1CN1CCCNCCNCCCNCC1 | - | >100 µM
COc1cc(O)cc(C(C)(C)CCCC(C)C)c1 | XTT | 46.4 µM
Cc1cc(C)nc(N2C(=O)CSC2c2c(Cl)cccc2[N+](=O)[O-])c1 | MTT | 9 µg/mL
CCc1cn([C@H]2CC[C@@H](CO)O2)c(=O)[nH]c1=O | - | >100 µM
OC[C@H]1C=C[C@@H](n2cnc3c2NCNC3=S)C1 | - | >100 µM
CCc1cn([C@H]2C[C@H](N=[N+]=[N-])[C@@H](CO)O2)c(=O)[nH]c1=O | - | ~1600 µM
CCNc1nc(N)nc2c1ncn2[C@H]1CO[C@@H](CO)O1 | MTT | 99.5 µM
CCCCCCCCC#Cc1cn(C/C=C/C(O)CO)c(=O)[nH]c1=O | - | 59.2 µM
O=c1[nH]cnc2c1ncn2[C@H]1CC[C@@H](CO)O1 | - | >100 µM
C[C@H](Cn1cnc2c(N)ncnc21)OCP(=O)(O)O | - | 27.3 µM
CCOC(=O)CCc1ccccc1OP(=O)(N[C@@H](C)C(=O)OCC)OC[C@H]1O[C@@H](n2cnc3c(N)nc(N)nc32)[C@](C)(O)[C@@H]1O | - | >100 µM
O=C(/C=C(\O)c1cc(Cc2c(F)cccc2F)cn(Cc2ccccc2F)c1=O)C(=O)NN1CCCC1=O | MTS / tetrazolium | 96.2 µM
CC1(C)CC[C@]2(C(=O)O)CC[C@]3(C)C(=CC[C@@H]4[C@@]5(C)CC[C@H](O[C@@H]6O[C@H](CO)[C@H](O[C@@H]7O[C@H](OO)[C@H](O)[C@H](O)[C@H]7O)[C@H](O)[C@H]6O)C(C)(C)[C@@H]5CC[C@]43C)[C@@H]2C1 | MTT | 9.44 µg/mL
CC[C@H](C)[C@@H](C(=O)O)n1sc2ccccc2c1=O | - | >100 µM
[N-]=[N+]=N[C@H]1[C@@H](O)[C@H](n2cnc3c(N)ncnc32)O[C@@H]1CO | - | 59.4 µM
CCOC(=O)CCc1ccccc1O[P@](=O)(N[C@@H](C)C(=O)OC(C)C)OC[C@H]1O[C@@H](n2cnc3c(N)nc(N)nc32)[C@](C)(O)[C@@H]1O | - | >100 µM
Cc1cn([C@H]2C[C@H](N=[N+]=[N-])[C@@H](CO)O2)c(=O)[nH]c1=O | - | >3.076 µM
CC(C)OC(=O)CCc1ccccc1O[P@](=O)(N[C@@H](C)C(=O)OC(C)C)OC[C@H]1O[C@@H](n2cnc3c(N)nc(N)nc32)[C@](C)(O)[C@@H]1O | - | >100 µM
O=c1[nH]cnc2c1ncn2[C@@H]1O[C@@H](CO)C=C1F | - | >100 µM
Cc1cn([C@H]2C[C@H](N=[N+]=[N-])[C@@H](CO)O2)c(=O)[nH]c1=O | - | >100 µg/mL
Nc1nc(N)c2ncn([C@H]3CO[C@@H](CO)O3)c2n1 | - | >1000 µM
CCOC(=O)CCc1ccccc1O[P@@](=O)(N[C@@H](C)C(=O)OC(C)C)OC[C@H]1O[C@@H](n2cnc3c(N)nc(N)nc32)[C@](C)(O)[C@@H]1O | - | >100 µM
O=C(NCCc1c[nH]c2ccccc12)C1=Cc2ccncc2CC1 | - | 18.4 µM
[N-]=[N+]=N[C@H]1[C@@H](O)[C@H](n2cnc3c(=O)[nH]c(N)nc32)O[C@@H]1CO | - | 14.5 µM
CCCCCCCCc1cc2cn(CC=C(CO)CO)c(=O)nc2o1 | - | 91 µM
O[C@]12C=C(Cc3cccc4cnccc34)[C@@H]3CCN(CCCC/C=C\CC1)C[C@@]31C[C@@H]3CCCCCCN3C12 | trypan blue | 4.2 µM
CCCCCc1cc2cn(COCCO)c(=O)nc2o1 | - | 54.4 µM
Nc1ncnc2c1ncn2CCOCP(=O)(O)O | MTT | >100 µM
Cc1cn([C@H]2C[C@@](F)(CC(F)(F)P(=O)(O)O)CO2)c(=O)[nH]c1=O | - | >100 µM
Cc1cn([C@H]2C=C(N=[N+]=[N-])[C@@H](CO)O2)c(=O)[nH]c1=O | - | 24.2 µM
CCOC(=O)CCc1ccccc1OP(=O)(N[C@@H](C)C(=O)OC(C)C)OC[C@H]1O[C@@H](n2cnc3c(N)nc(N)nc32)[C@](C)(O)[C@@H]1O | - | >100 µM
Cc1cn([C@H]2C[C@H](N=[N+]=[N-])[C@@H](CO)O2)c(=O)[nH]c1=O | - | >100 µM
Cc1nc2cc3nc4ccccc4cc3cc2s1 | - | 16.8 µM
CC(=O)O[C@@H]1[C@H](OC(=O)CC(C)C)c2c(ccc3ccc(=O)oc23)OC1(C)C | - | >3.9 µM
CC(C)(C)c1ccc(C(Cn2cccc(C(F)(F)F)c2=O)NC2Cc3ccccc3C2)cc1 | - | 17 µM
Nc1nc(NC2CC2)c2ncn([C@H]3C=C[C@@H](CO)O3)c2n1 | MTT | 84.5 µM
CC(C)OC(=O)OCOP(=O)(CO[C@H](C)Cn1cnc2c(N)ncnc21)OCOC(=O)OC(C)C | - | 29 µM
Nc1ncnc2c1ncn2[C@H]1OC[C@@](F)(CCP(=O)(O)O)[C@H]1F | MTT | >100 µM
COC(=O)N[C@H](C(=O)N[C@@H](Cc1ccccc1)[C@@H](O)CN(Cc1ccc(-c2ccccn2)cc1)NC(=O)[C@@H](NC(=O)OC)C(C)(C)C)C(C)(C)C | - | 50 µM
CCn1cc(C(=O)O)c(=O)c2cc(F)c(N3CCN(c4ccccc4OC)CC3)c(OC(F)F)c21 | - | 11 µM
CCCCCc1ccc(C#Cc2cn(COCCO)c(=O)[nH]c2=O)cc1 | - | 8.3 µM
CC[C@H](C)[C@H](NC(=O)C(=O)OC[C@H]1O[C@@H](n2cc(C)c(=O)[nH]c2=O)C[C@@H]1N=[N+]=[N-])C(=O)O | trypan blue | 200 µM
CCCCCCCCCCCCCCCCCCCCCCOCC(C)(COCCCCCCCCCCCCCCCCCCCCCC)CO[C@]1(C(=O)O)C[C@H](OS(=O)(=O)O)[C@@H](NC(C)=O)[C@H]([C@H](OS(=O)(=O)O)[C@@H](COS(=O)(=O)O)OS(=O)(=O)O)O1 | - | >200 µM
C[C@]1(/C=C/P(=O)(O)O)CO[C@@H](n2cnc3c(=O)[nH]c(N)nc32)C1 | - | >100 µM
Cc1cn([C@H]2C[C@H](N=[N+]=[N-])[C@@H](CO)O2)c(=O)[nH]c1=O | XTT | >4 µM
O[C@]12C=C(Cc3nccc4ccccc34)[C@@H]3CCN(CCCC/C=C\CC1)C[C@@]31C[C@@H]3CCCCCCN3C12 | trypan blue | 4.7 µM
Nc1nc(=O)n([C@H]2C=C[C@@H](CO)O2)cc1F | - | >100 µM
CCCCCc1ccc(C#Cc2cn(C/C=C/C(O)CO)c(=O)[nH]c2=O)cc1 | - | 19.5 µM
CC(C)OC(=O)OCOP(=O)(CO[C@H](C)Cn1cnc2c(N)ncnc21)OCOC(=O)OC(C)C | - | 29 µM
CC(C)OC(=O)OCOP(=O)(CO[C@H](C)Cn1cnc2c(N)ncnc21)OCOC(=O)OC(C)C | visual reading | 14.56 µM
Cc1cn([C@H]2C[C@H](N=[N+]=[N-])[C@@H](CO)O2)c(=O)[nH]c1=O | - | >10 µg/mL
Nc1ncnc2c1ncn2[C@H]1C=C[C@@H](CO)O1 | - | >100 µM
Nc1ncnc2c1ncn2[C@H]1C[C@@](F)(CC(F)(F)P(=O)(O)O)CO1 | - | 95 µM
Cc1cnc(CC2=C[C@@]3(O)CC/C=C\CCCCN4CC[C@@H]2[C@]2(C[C@@H]5CCCCCCN5C23)C4)cn1 | trypan blue | 13.5 µM
CCOP(=O)(OCC)C(F)(F)C[C@@]1(F)CO[C@@H](n2cnc3c(Cl)nc(N)nc32)C1 | - | >100 µM
Cc1cn([C@H]2C[C@H](N=[N+]=[N-])[C@@H](COC(=O)C(=O)N[C@@H](CC(C)C)C(=O)O)O2)c(=O)[nH]c1=O | trypan blue | 20 µM
Cc1cn([C@H]2C[C@H](N=[N+]=[N-])[C@@H](CO)O2)c(=O)nc1N | - | >200 µM
Nc1ncnc2c([C@H]3CC[C@](/C=C/P(=O)(O)O)(C(F)(F)F)C3)c[nH]c12 | MTT | >100 µM
CCCCC#CCSc1ccccc1OC(C)=O | MTT | 105 µM
O=c1[nH]cnc2c1ncn2[C@H]1O[C@@H](CO)C=C1F | - | >100 µM
[N-]=[N+]=NC1=C[C@H](n2ccc(N)nc2=O)O[C@@H]1CO | - | ~100 µM
Nc1ccn([C@H]2CC[C@@H](CO)O2)c(=O)n1 | - | >100 µM
CNc1nc(N)nc2c1ncn2[C@H]1CO[C@@H](CO)O1 | MTT | >100 µM
Cc1cn([C@H]2C[C@H](N=[N+]=[N-])[C@@H](CO)O2)c(=O)[nH]c1=O | - | >100 µM
Nc1ncnc2c1ncn2[C@H]1CC[C@@H](CO)O1 | - | >100 µM
Nc1ccn([C@@H]2C=C(F)[C@H](CO)O2)c(=O)n1 | - | 86.9 µM
Nc1nc(NCc2ccccc2)c2ncn([C@H]3CO[C@@H](CO)O3)c2n1 | MTT | >100 µM
CCCCCCCCCc1ccc(OCCOCCOCCOCCOCCOCCOCCOCCOCCO)cc1 | - | 25 µg/mL
O=c1[nH]cnc2c1ncn2[C@H]1C=C[C@@H](CO)O1 | - | >100 µM
Nc1ncnc2c1ncn2[C@@H]1CC[C@H](CO)O1 | - | >100 µM
C[C@]1(/C=C/P(=O)(O)O)CO[C@@H](n2cnc3c(N)ncnc32)C1 | - | >100 µM
O=C(O)c1cc(O)cc(O)c1N=Nc1ccc(/C=C/c2ccc(N=Nc3c(O)cc(O)cc3C(=O)O)cc2S(=O)(=O)O)c(S(=O)(=O)O)c1 | - | >100 µg/mL
C[C@H](Cn1cnc2c(N)ncnc21)OCP(=O)(O)O | visual reading | >25 µM
CCOP(=O)(OCC)C(F)(F)C[C@@]1(F)CO[C@@H](n2cc(C)c(=O)[nH]c2=O)C1 | - | >100 µM

Repeating the final 5 entries:

smiles	read by	value
Nc1ncnc2c1ncn2[C@@H]1CC[C@H](CO)O1	-	>100 µM
C[C@]1(/C=C/P(=O)(O)O)CO[C@@H](n2cnc3c(N)ncnc32)C1	-	>100 µM
O=C(O)c1cc(O)cc(O)c1N=Nc1ccc(/C=C/c2ccc(N=Nc3c(O)cc(O)cc3C(=O)O)cc2S(=O)(=O)O)c(S(=O)(=O)O)c1	-	>100 µg/mL
C[C@H](Cn1cnc2c(N)ncnc21)OCP(=O)(O)O	visual reading	>25 µM
CCOP(=O)(OCC)C(F)(F)C[C@@]1(F)CO[C@@H](n2cc(C)c(=O)[nH]c2=O)C1	-	>100 µM